Drawing on ChEMBL document CHEMBL1128214, “Structure-based design of sulfonamide-substituted non-peptidic HIV protease inhibitors” (J Med Chem, 1995), this text covers Ki for one molecule.

What is called Ki is a dissociation constant, usually derived from enzyme kinetics or from competition with a known ligand.

For the test, the target named is Human immunodeficiency virus type 1 protease (Human immunodeficiency virus 1, UniProt Q72874). As to the kind of experiment: Inhibitory activity against HIV-1 protease.

Molecule `O=c1c2c(oc(O)c1C(c1cccc(NS(=O)(=O)c3ccccc3)c1)C1CC1)CCCCCC2` (stereo unspecified) came in with a Ki of 3 nM.
